Source: article PMC10115812, “Dephosphocholination by Legionella effector Lem3 functions through remodelling of the switch II region of Rab1b” (Nature Communications, 2023)

Assays:
[1] = target: Lem3_(21-486, D190A) (Legionella pneumophila, UniProt Q5ZXN5 21-486, D190A)
[2] = target: Lem3_(D190A_C134S_C209S_C456S) (Legionella pneumophila, UniProt Q5ZXN5 21-486, D190A | C134S | C209S | C456S)
[3] = target: Lem3_(C134S_C209S_T391C_C395S_C456S) (Legionella pneumophila, UniProt Q5ZXN5 21-486, C134S | C209S | T391C | C395S | C456S)

B1: Rab1b_(S76(PC-Cl)) (domain or fragment)
chain: PEYDYLFKLLLIGDSGVGKSCLLLRFADDTYTESYISTIGVDFKIRTIELDGKTIKLQIWDTAGQERFRTITSSYYRGAHGIIVVYDVTDQESYANVKQWLQEIDRYASENVNKLLVGNKSDLTTKKVVDNTTAKEFADSLGIPFLETSAKNATNVEQAFMTMAAEIKKRMG
modifications: phosphocholine-chloroacetamide (PC-Cl, thiol-reactive, C3 linker) at S76
B1: binds [1]; binds [2].

B2: Rab1b_(S76T(PC-Cl)) (domain or fragment)
chain: B1 chain with S74T
B2: binds [3].

Residue numbers refer to the chain shown, from its start. Numbers in names are those of the source.
